Assay results reported in publication PMC7887755, “Structure–Activity Relationships of Pyrazolo[1,5-a]pyrimidin-7(4H)-ones as Antitubercular Agents” (ACS Infectious Diseases, 2021).

System: WT H37Rv
Assay type: cell-based
Details: 10× MIC added to 10^9 CFUs of H37Rv, 24 h

Cc1nn2c(=O)cc(-c3ccc(F)c(F)c3)[nH]c2c1-c1ccccc1 [Compound P19, 5-(3,4-Difluorophenyl)-2-methyl-3-phenylpyrazolo[1,5-a]pyrimidin-7(4H)-one]
degradation of compound by Mtb: about 10%
